Results of unrelated studies side by side (data: NIAID ChemDB).

All rows: tests in culture; species: Mycobacterium avium; read-out: MIC

Rows are shuffled and stem from different studies. Two numbers with a dash give a range or band.

SMILES	strain	value
CCC[C@@H](O)C1=C(Br)/C(=C/Br)OC1=O	ATCC 25291	>128 µg/mL
C[C@]1(COc2ccc(N3CCC(Oc4ccc(OC(F)(F)F)cc4)CC3)cc2)Cn2cc([N+](=O)[O-])nc2O1	ATCC 25291	1.6 µg/mL
O=C(O)c1cccc2oc3ccccc3c(=O)c12	SN 304	>32 µg/mL
CC[C@H]1OC(=O)[C@H](C)[C@@H](O[C@H]2C[C@@](C)(OC)[C@@H](O)[C@H](C)O2)[C@H](C)[C@@H](O[C@@H]2O[C@H](C)C[C@H](N(C)C)[C@H]2O)[C@](C)(OC)C[C@@H](C)C(=O)[C@H](C)[C@@H](O)[C@]1(C)O	RG4	0.12 µg/mL
NC(=S)c1cc(SCc2cccnc2)ccn1	MY330/88	>62.5 µM
c1ccc(C2=NCCN2)c(NCc2cccc3ccccc23)c1	103317	4 µg/mL
Cc1ccc2oc3ccccc3c(=O)c2c1	SN 304	>32 µg/mL
CC(C)(C)c1ccc(CNc2ccccc2C2=NCCN2)cc1	103317	4 µg/mL
COC(=O)c1cccc2oc3ccccc3c(=O)c12	SN 304	>32 µg/mL
CCCCCCn1c(C)cc(CN2CCOCC2)c1C	103317	>64 µg/mL
O=C(NCc1ccc(N2CCN(Cc3ccccc3)CC2)nc1)c1ccc([N+](=O)[O-])o1	ATCC 25291	100 µg/mL
c1ccc2c(CNc3ccc(N4CCSCC4)cc3)cccc2c1	103317	4 µg/mL
O=C(O)c1ccc2c(=O)c3cc([N+](=O)[O-])ccc3oc2c1	SN 304	>32 µg/mL
CCCCCCCCCCCCCCCCSC[C@@H]1N[C@H](CO)[C@@H](O)[C@@H]1O	3 to 5 strains	16–64 µg/mL
[C-]#[N+][C@@]1(C)C2CC[C@H]3[C@H]4[C@H](CC[C@]3(C)[N+]#[C-])[C@@H](C)C[C@@H](CC1(C)C)[C@H]24	ATCC 25291	8 µg/mL
CNC(C)C1CCN(c2c(F)c(N)c3c(=O)c(C(=O)O)cn(C4CC4)c3c2OC)C1	PI2/8	0.25 µg/mL
O=C(O)c1ccc2c(=O)c3ccccc3oc2c1C(=O)O	SN 304	>32 µg/mL
CCn1cc(C(=O)O)c(=O)c2cc(F)c(N3CCNCC3)cc21	PI4/44	32 µg/mL
COC(=O)c1cccc2c(=O)c3ccccc3oc12	SN 304	>32 µg/mL
Cc1cc(CN2CCOCC2)c(C)[nH]1	103317	>64 µg/mL
O=C(O)c1cn(C2CC2)c2c(F)c(N3CCN4CCC3C4)c(F)cc2c1=O	RG4	0.5 µg/mL
Cc1cccc2oc3ccccc3c(=O)c12	SN 304	>32 µg/mL
CC1CN(c2c(F)c(N)c3c(=O)c(C(=O)O)cn(C4CC4)c3c2F)CCN1C	LR114F	0.12 µg/mL
N#Cc1cc(SCc2ccccn2)ccn1	MY330/88	62.5 µM
C=C1C[C@H](O)[C@H](Br)C(C)(C)[C@]12CC=C(C)CC2	ATCC 25291	8 µg/mL
c1ccc2oc(SCc3ccncc3)nc2c1	MY330/88	125 µM
Cc1c(CN2CCSCC2)cc(-c2ccc(F)cc2)n1-c1ccccc1	103317	16 µg/mL
CC1(C)[C@@H](Br)CC[C@]2(C)O[C@H]3COC(=O)C3=C[C@@H](O)[C@@H]12	ATCC 25291	>128 µg/mL
CCn1cc(C(=O)O)c(=O)c2ccc(N3CC(O)C(O)C(O)C3)nc21	PI2/8	>32 µg/mL
O=C(c1ccc([N+](=O)[O-])o1)N1CCc2cc(N3CCN(Cc4ccccc4)CC3)ccc2C1	ATCC 25291	25 µg/mL
CO[C@H]1/C=C/O[C@@]2(C)Oc3c(C)c(O)c4c(O)c(c(/C=N/N5CCN(C)CC5)c(O)c4c3C2=O)NC(=O)/C(C)=C\C=C\[C@H](C)[C@H](O)[C@@H](C)[C@@H](O)[C@@H](C)[C@H](OC(C)=O)[C@@H]1C	Isolate 90-1065	5 µg/mL
CCC[C@@H](OC(C)=O)C1=C(Br)[C@@](CI)(OC)OC1=O	ATCC 25291	>128 µg/mL
O=C(O)c1cn(C2CC2)c2c(F)c(N3CCN4CCC3C4)c(F)cc2c1=O	PI2/8	0.03 µg/mL
CCC(CO)NC[C@H]1O[C@H](CO)[C@@H](O)[C@@H]1O	3 to 5 strains	>128 µg/mL
CCn1cc(C(=O)O)c(=O)c2cc(F)c(N3CCS(=O)CC3)c(F)c21	PI2/6	8 µg/mL
N#Cc1cc(SCc2cccc3ccccc23)ccn1	MY330/88	>125 µM
CCNCC1CCN(c2c(F)cc3c(=O)c(C(=O)O)cn4c3c2CCC4C)C1	PI2/8	0.25 µg/mL
CC[C@@H](CO)NC[C@@H]1O[C@H](CO)[C@@H](O)[C@@H]1O	3 to 5 strains	>128 µg/mL
C[C@@H]1CN(c2c(F)c(N)c3c(=O)c(C(=O)O)cn(C4CC4)c3c2F)C[C@H](C)N1	PI2/8	0.03 µg/mL
CCCCN1[C@H](CO)[C@@H](O)[C@H](O)[C@@H]1CO	3 to 5 strains	>128 µg/mL
CCn1cc(C(=O)O)c(=O)c2ccc(C)nc21	3 strains	256 µg/mL
Cc1c(CN2CCOCC2)c(CN2CCOCC2)c(C)n1C1CCCCC1	103317	>64 µg/mL
CCCCCCCCCCCCSC[C@@H]1N[C@H](CO)[C@@H](O)[C@@H]1O	3 to 5 strains	16 µg/mL
c1ccc2c(CSc3nc4ccccc4o3)cccc2c1	MY330/88	250 µM
C=C(COC(C)=O)C1Cc2cc(O)c(C(C)=O)cc2O1	ATCC 25291	64 µg/mL
Cc1[nH]c(-c2ccc(Cl)cc2)cc1CN1CCN(C)CC1	103317	>64 µg/mL
Cc1cc(N)cc2c(=O)c3ccccc3oc12	SN 304	>16 µg/mL
c1ccc(CSc2nc3ccccc3s2)nc1	MY330/88	125 µM
O=C(O)c1cn(C2CC2)c2c(F)c(N3CCC(N4CCCC4)C3)c(F)cc2c1=O	PI12/39	0.25 µg/mL

7 of the rows above, restated:

{"SMILES": "Cc1c(CN2CCOCC2)c(CN2CCOCC2)c(C)n1C1CCCCC1", "strain": "103317", "value": ">64 µg/mL"}
{"SMILES": "c1ccc(CSc2nc3ccccc3s2)nc1", "strain": "MY330/88", "value": "125 µM"}
{"SMILES": "N#Cc1cc(SCc2cccc3ccccc23)ccn1", "strain": "MY330/88", "value": ">125 µM"}
{"SMILES": "CCC[C@@H](OC(C)=O)C1=C(Br)[C@@](CI)(OC)OC1=O", "strain": "ATCC 25291", "value": ">128 µg/mL"}
{"SMILES": "c1ccc2c(CSc3nc4ccccc4o3)cccc2c1", "strain": "MY330/88", "value": "250 µM"}
{"SMILES": "CC[C@H]1OC(=O)[C@H](C)[C@@H](O[C@H]2C[C@@](C)(OC)[C@@H](O)[C@H](C)O2)[C@H](C)[C@@H](O[C@@H]2O[C@H](C)C[C@H](N(C)C)[C@H]2O)[C@](C)(OC)C[C@@H](C)C(=O)[C@H](C)[C@@H](O)[C@]1(C)O", "strain": "RG4", "value": "0.12 µg/mL"}
{"SMILES": "CCCCCCCCCCCCSC[C@@H]1N[C@H](CO)[C@@H](O)[C@@H]1O", "strain": "3 to 5 strains", "value": "16 µg/mL"}